PSTVd loop 1 mutant pool in Nicotiana benthamiana

Region: loop 1 of PSTVd (intermediate strain), 5' to 3', with the closing base pair. Wild type: CCUCGG. Varied positions (N): CNNNNG.

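Three N. benthamiana plants were inoculated with the whole mutant pool. Samples came from the inoculated region at 5 days, the leaf margin at 10 and upper systemic leaves at 12.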

Numbers give reads per thousand; 0 = not seen among the reads, higher = more abundant.
Each site shows the three plants.
"Pool" is the share in the plasmid pool used as inoculum, on the same scale.
The inoculated region was read from the minus strand, the other sites from the plus strand.
Sequences that differ at fixed positions probably stem from PCR or sequencing errors, and defective variants can be carried along by functional ones.
For reference, wild type rose from 20.1 per thousand in the pool to 197, 219, 222 (inoculated region), 828, 823, 779 (leaf margin) and 914, 907, 857 (systemic leaves).
With 32,791-60,834 reads a sample, very low values are single reads.

sequence,pool,inoculated region,leaf margin,systemic leaves
AAUAUG,0.0131,0 / 0 / 0,0 / 0 / 0,0 / 0 / 0
AAUGGG,0.0131,0 / 0 / 0,0 / 0 / 0,0 / 0 / 0
ACUCGA,0.0131,0 / 0 / 0,0 / 0 / 0,0 / 0 / 0
ACUCGG,0.197,0.424 / 0.319 / 0.625,0.498 / 0.676 / 13.8,4.73 / 4.87 / 4.60
ACUCGU,0.0131,0.0185 / 0 / 0.0536,0 / 0.0423 / 0,0.0812 / 0 / 0.0658
AGCAAG,0.0131,0 / 0 / 0,0 / 0 / 0,0 / 0 / 0
AUAAAG,0.0131,0 / 0 / 0,0 / 0 / 0,0 / 0 / 0
AUAUAG,0.0131,0 / 0 / 0,0 / 0 / 0,0 / 0 / 0
AUAUGG,0.0131,0 / 0 / 0,0 / 0 / 0,0 / 0 / 0
AUAUUG,0.0131,0 / 0 / 0,0 / 0 / 0,0 / 0 / 0
AUCCGG,0.0131,0 / 0 / 0,0 / 0 / 3.78,0 / 0 / 1.22
AUUGUG,0.0131,0 / 0 / 0,0 / 0 / 0,0 / 0 / 0
CAAAAG,3.26,2.79 / 2.70 / 2.27,0 / 0 / 6.40,0 / 0 / 2.55
CAAACG,3.67,2.77 / 3.13 / 2.72,0 / 0.0211 / 0,0 / 0 / 0.0164
CAAAGG,3.30,2.60 / 2.72 / 2.86,0.0199 / 0 / 0.0305,0 / 0 / 0
CAAAUG,4.06,2.55 / 2.42 / 2.80,0.0199 / 0 / 0,0 / 0 / 0
CAACAG,3.80,2.31 / 2.57 / 2.47,0 / 0 / 0,0 / 0 / 0.0164
CAACCG,3.81,3.38 / 2.72 / 2.57,0 / 0 / 0.0305,0 / 0 / 0
CAACGG,3.88,3.64 / 2.74 / 2.30,0 / 0.0211 / 0.0305,0 / 0 / 0
CAACUG,4.83,2.88 / 2.76 / 2.97,0 / 0.0211 / 0.305,0 / 0 / 0.115
CAACUU,0.0131,0 / 0 / 0,0 / 0 / 0,0 / 0 / 0
CAAGAG,4.27,3.01 / 2.81 / 3.07,0 / 0 / 0.0305,0 / 0 / 0
CAAGCG,3.17,2.99 / 2.83 / 2.80,0 / 0 / 0.0305,0 / 0 / 0
CAAGGG,3.57,2.95 / 2.49 / 2.27,0 / 0 / 0,0 / 0 / 0
CAAGUG,4.02,3.23 / 2.66 / 2.52,0 / 0.0423 / 0,0 / 0 / 0.0493
CAAGUU,0.0263,0 / 0 / 0,0 / 0 / 0,0 / 0 / 0
CAAUAG,3.51,2.92 / 2.62 / 2.66,0 / 0 / 0.0305,0 / 0 / 0
CAAUCG,3.26,3.19 / 2.66 / 2.63,0 / 0 / 0,0 / 0 / 0
CAAUGG,3.13,2.82 / 3.17 / 2.80,0.0199 / 0 / 0,0 / 0 / 0
CAAUUG,3.73,2.97 / 2.55 / 2.52,0 / 0.0211 / 0,0 / 0 / 0.0329
CACAAG,3.39,2.97 / 2.79 / 2.61,0 / 0 / 0,0 / 0 / 0
CACACG,3.73,2.79 / 2.76 / 2.72,0.0199 / 0 / 0.0305,0 / 0 / 0
CACAGG,3.56,2.42 / 2.72 / 2.41,0 / 0 / 0,0 / 0 / 0
CACAUG,3.38,2.80 / 2.70 / 2.68,0 / 0 / 3.23,0 / 0 / 1.59
CACCAG,3.93,3.03 / 2.59 / 3.05,0 / 0 / 0,0 / 0 / 0.0164
CACCCG,4.55,2.77 / 2.68 / 2.75,0 / 0.0634 / 0.0610,0 / 0 / 0.0164
CACCGG,3.28,3.08 / 2.70 / 2.36,0 / 0 / 4.57,0 / 0 / 0
CACCUG,4.45,2.71 / 3.30 / 2.88,0 / 0 / 0,0 / 0 / 0.0164
CACGAG,3.48,3.04 / 2.53 / 2.75,0 / 0 / 0,0 / 0 / 0
CACGCG,3.22,2.77 / 2.83 / 2.30,0 / 0.0211 / 0,0 / 0 / 0
CACGGG,4.18,3.06 / 2.87 / 2.79,0 / 0.0634 / 0,0 / 0 / 0
CACGUG,4.01,2.99 / 2.66 / 2.34,0.0398 / 0 / 0,0 / 0 / 0
CACUAG,4.51,2.77 / 2.77 / 3.34,0 / 0.0211 / 0,0 / 0 / 0

The first 4 entries again:

- AAUAUG (pool 0.0131) -> inoculated region 0 / 0 / 0; leaf margin 0 / 0 / 0; systemic leaves 0 / 0 / 0
- AAUGGG (pool 0.0131) -> inoculated region 0 / 0 / 0; leaf margin 0 / 0 / 0; systemic leaves 0 / 0 / 0
- ACUCGA (pool 0.0131) -> inoculated region 0 / 0 / 0; leaf margin 0 / 0 / 0; systemic leaves 0 / 0 / 0
- ACUCGG (pool 0.197) -> inoculated region 0.424 / 0.319 / 0.625; leaf margin 0.498 / 0.676 / 13.8; systemic leaves 4.73 / 4.87 / 4.60

Data from the supplement of Wu et al. 2024, doi:10.1371/journal.ppat.1012142.